Pooled drug test results. Numbers come from NIAID ChemDB, via PubChem.

Shared fields: growth or infection tests; organism: Hepatitis C virus

Fold resistance has wild type as its base. Neighbouring rows are from separate reports. An empty or dashed field is not shown. Percent inhibition refers to the dose given; in toxicity tests it is the harm to the cells. ECn is the concentration giving n% inhibition of infection, replication or growth.

structure	changes	dose	measure	cell line	method	strain	result
COC(=O)N[C@H](C(=O)N1CCC[C@H]1c1ncc(-c2ccc(-c3ccc(-c4cnc([C@@H]5CCCN5C(=O)[C@@H](NC(=O)OC)C(C)C)[nH]4)cc3)cc2)[nH]1)C(C)C	-	0.00004 µM	inhibition	Huh7	luciferase / replicon	1b Con1	86.67%
O=c1c(O)c(-c2ccc(O)c(O)c2)oc2cc(O)cc(O)c12	-	0.5 µM	inhibition	Huh7	PCR	G1	52%
CCC[C@H](NC(=O)[C@@H]1[C@H]2CCC[C@H]2CN1C(=O)[C@@H](NC(=O)[C@@H](NC(=O)c1cnccn1)C1CCCCC1)C(C)(C)C)C(=O)C(=O)NC1CC1	-	-	EC50	Huh7.5	antigen	HK6a	0.454 µM
CC(=O)Nc1ccc(-c2ccc(Cl)cc2)c(COc2ccc(-c3nc4cc(C(=O)O)ccc4n3C3CCCCC3)cc2)c1	-	-	EC50	Huh7	luciferase	3a	0.6103 µM
C=CC(=O)NCC(=O)N1C[C@H](Oc2nccc3ccc(Br)cc23)C[C@H]1C(=O)N[C@]1(C(=O)NS(=O)(=O)C2CC2)C[C@H]1C=C	-	-	EC50	-	luciferase	1b D168V	>3 µM
COc1ccc2c(O[C@@H]3C[C@H]4C(=O)N[C@]5(C(=O)NS(=O)(=O)C6CC6)C[C@H]5/C=C\CCCCN(C)C(=O)[C@@H]4C3)cc(-c3nc(C(C)C)cs3)nc2c1C	-	-	EC50	Huh7.5	antigen	JFH-1	0.073 µM
Clc1ccc(Cn2c(CN3CCCC3)nc3ccccc32)cc1	-	7.5 µM	inhibition	Huh7	luciferase / replicon	1b Con1	62.12%
C[C@@]1(O)[C@H](O)[C@@H](CO)O[C@H]1c1coc2c(N)ncnc12	-	10 µg/mL	inhibition	Hep3B-T5B	MTT	-	1.01%
CC(C)OC(=O)[C@H](C)N[P@](=O)(OC[C@H]1O[C@@](C#N)(c2ccc3c(N)ncnn23)[C@](C)(O)[C@@H]1OC(=O)C(C)C)Oc1ccccc1	D168V	-	fold resistance	1C	luciferase	1b Con1	0.61
CO[C@@H]1[C@H](O)[C@@H](COP(=O)(O)OP(=O)(O)OP(=O)(O)O)O[C@H]1n1ccc(N)nc1=O	-	30 µg/mL	inhibition	Hep3B-T5B	MTT	-	53.68%
CC(C)(CO)C(=O)SCCOP(=O)(NCc1ccccc1)OC[C@H]1O[C@@H](n2cnc3c(=O)[nH]c(N)nc32)[C@](C)(O)[C@@H]1O	Y93N	-	fold resistance	Replicon cells	replicon	GT1b	0.69
C[C@@]1(O)[C@H](O)[C@@H](CO)O[C@H]1n1cnc2c(N)ncnc21	-	-	EC50	Huh7	luciferase	1a	0.3031 µM
O=C1c2c(O)cc(O)cc2O[C@H](c2ccc(O)c(O)c2)[C@H]1O	-	5 µM	inhibition	Huh7	PCR	G1	43%
Fc1ccccc1-c1nc2ccn(Cc3ccc(-c4ccc(C(F)(F)F)cc4C(F)(F)F)nn3)cc-2n1	-	-	EC50	Huh7	luciferase	4a	0.992 µM
C[C@@]1(O)[C@H](O)[C@@H](CO)O[C@H]1n1cnc2c(N)ncnc21	S282T	-	fold resistance	1C	luciferase	Con1	41

The last 2 rows once more:

structure,changes,dose,measure,cell line,method,strain,result
Fc1ccccc1-c1nc2ccn(Cc3ccc(-c4ccc(C(F)(F)F)cc4C(F)(F)F)nn3)cc-2n1,-,-,EC50,Huh7,luciferase,4a,0.992 µM
C[C@@]1(O)[C@H](O)[C@@H](CO)O[C@H]1n1cnc2c(N)ncnc21,S282T,-,fold resistance,1C,luciferase,Con1,41